How the values were obtained:
Botrytis cinerea [1] = assay: Activity against Botrytis cinerea on bell pepper leaves (Use Example 1); assay type: in vivo; conditions: bell pepper seedlings, protective spray, evaluated after 5 days
Botrytis cinerea [2] = assay: Activity against Botrytis cinerea on bell peppers, green fruit disks (Use Example 2); assay type: in vivo; conditions: 31 ppm active ingredient in the spray liquor; green bell pepper fruit disks, 4 days at 18° C.

Measured: Efficacy in % of the untreated control

captan
0%: Botrytis cinerea [1]; 8 ppm active ingredient in the spray liquor | Botrytis cinerea [1]; 16 ppm active ingredient in the spray liquor | Botrytis cinerea [1]; 31 ppm active ingredient in the spray liquor | Botrytis cinerea [2]

Reference: US6903108B2, “Fungicidal mixtures based on amide compounds and pyridine derivatives” (BASF Aktiengesellschaft, priority 1997, dated 2005)
